Anti-infective test results gathered from many reports (values: NIAID ChemDB through PubChem).

Common to all: enzyme or target tests

Inhibition is in % at the dose shown (toxicity tests: loss of growth or viability).

compound | tested at | protein | changes | read by | strain | read-out | organism | result
CCOC(=O)NCCCCC(C)(C)CN(C[C@@H](O)[C@H](Cc1ccccc1)NC(=O)O[C@H]1CO[C@H]2OCC[C@H]21)S(=O)(=O)c1ccc2c(c1)OCO2 | - | Protease | - | fluorescence | - | Ki | HIV-1 | <0.001 µM
CC(C)=CCN1Cc2cccc3[nH]c(=S)n(c23)C[C@@H]1C | - | Reverse transcriptase | RT-V60T | nucleotide incorporation | - | fold resistance | HIV | 2.59
CC(C)(C#Cc1ccc(NC(=O)CSc2nnnn2-c2ccc(C3CC3)cc2Cl)c(Cl)c1)OCCNC1CCC1 | - | Reverse transcriptase | - | PicoGreen / fluorescence | WT | IC50 | HIV-1 | <1 µM
CC(C)[C@H](NC(=O)[C@@H]1CCCN1C(=O)[C@H](O)[C@H](Cc1ccccc1)NC(=O)OC(C)(C)C)C(=O)OC1CCCCC1 | 1000 µM | Protease | - | - | - | inhibition | HIV-1 | 11.7%
CC(C)(C)c1ccc(-n2nnnc2SCC(=O)Nc2ccc(OCC(=O)NCCc3ccncc3)cc2Cl)c(Cl)c1 | - | Reverse transcriptase | RT-K103 Y181C | PicoGreen / fluorescence | - | IC50 | HIV-1 | <1 µM
C#CCOC(=O)NCCCCC(C)(C)CN(C[C@@H](O)[C@H](Cc1ccccc1)NC(=O)O[C@H]1CO[C@H]2OCC[C@H]21)S(=O)(=O)c1ccc2c(c1)OCO2 | - | Protease | - | fluorescence | - | Ki | HIV-1 | <0.001 µM
CC(C)(C)NC(=O)[C@@H]1CSCN1C(=O)[C@@H](O)[C@H](Cc1ccccc1)NC(=O)[C@H](CC(N)=O)NC(=O)COc1cccc2ccccc12 | 0.05 µM | Protease | - | - | - | inhibition | HIV-1 | 91.3%
CC(C)NC(=S)NCCCC(C)(C)CN(C[C@@H](O)[C@H](Cc1ccccc1)NC(=O)O[C@H]1CO[C@H]2OCC[C@H]21)S(=O)(=O)c1ccc2c(c1)OCO2 | - | Protease | - | fluorescence | - | Ki | HIV-1 | <0.001 µM
CC(C)(O)C#Cc1ccc(NC(=O)CSc2nnnn2-c2cc3c(cc2Cl)CCC3)c(Cl)c1 | - | Reverse transcriptase | - | PicoGreen / fluorescence | WT | IC50 | HIV-1 | <1 µM
O=C(NCc1ccc(F)cc1)c1cn2c(c(O)c1=O)C(=O)N(Cc1cccc(Cl)c1)CC2 | - | Integrase | - | ELISA | - | IC50 | HIV-1 | <0.01 µM
CC(C)CNC(=O)[C@@H](NC(=O)[C@H](Cc1ccccc1)NC(=O)[C@H](O)[C@H](Cc1ccccc1)NC(=O)[C@@H](NC(=O)OCc1ccccc1)C(C)C)C(C)C | 5 µM | Protease | - | - | - | inhibition | HIV-1 | 16.6%
O=C(COc1ccc(NC(=O)CSc2nnnn2-c2ccc(C3CC3)cc2Cl)c(Cl)c1)NCCc1cccnc1 | - | Reverse transcriptase | RT-K103 Y181C | PicoGreen / fluorescence | - | IC50 | HIV-1 | <1 µM
O=C1CCN(C(=O)c2cn3ccn(Cc4cccc(Cl)c4)c(=O)c3c(O)c2=O)C1 | - | Integrase | - | ELISA | - | IC50 | HIV-1 | 0.01–0.1 µM
CC(C)(C)c1ccc(-n2nnnc2SCC(=O)Nc2ccc(C(=O)N3CCC(C(=O)O)CC3)cc2Cl)c(Cl)c1 | - | Reverse transcriptase | RT-K103 Y181C | PicoGreen / fluorescence | - | IC50 | HIV-1 | <1 µM
Nc1nc2c(ncn2[C@H]2CO[C@@H](COP(=O)(O)OP(=O)(O)OP(=O)(O)O)O2)c(=O)[nH]1 | - | Reverse transcriptase | RT-L74V K103N | radiometric | - | Ki | HIV | 0.022 µM
CCCCN(C)C(=O)c1cn2ccn(Cc3cccc(Cl)c3)c(=O)c2c(O)c1=O | - | Integrase | - | ELISA | - | IC50 | HIV-1 | 0.01–0.1 µM
O=C(CSc1nnnn1-c1ccc(C2CC2)cc1Cl)Nc1ccc(C(=O)NS(=O)(=O)c2ccccc2)cc1Cl | - | Reverse transcriptase | - | PicoGreen / fluorescence | WT | IC50 | HIV-1 | <1 µM
CC(C)(CCCNC(=O)C(C)(C)C)CN(C[C@@H](O)[C@H](Cc1ccccc1)NC(=O)O[C@H]1CO[C@H]2OCC[C@H]21)S(=O)(=O)c1ccc2c(c1)OCO2 | - | Protease | - | fluorescence | - | Ki | HIV-1 | <0.001 µM
CC(C)(C#Cc1ccc(NC(=O)CSc2nnnn2-c2ccc(C3CC3)cc2Cl)c(Cl)c1)NC(=O)CN=c1ccn(O)cc1 | - | Reverse transcriptase | - | PicoGreen / fluorescence | WT | IC50 | HIV-1 | <1 µM
COc1ccc(S(=O)(=O)N(C[C@@H](O)[C@H](Cc2ccccc2)NC(=O)O[C@H]2CO[C@H]3OCC[C@H]32)CC(C)(C)CCC(C)=O)cc1 | - | Protease | - | fluorescence | - | Ki | HIV-1 | <0.001 µM
CC(C)(C)c1ccc(-n2nnnc2SCC(=O)Nc2ccc(OCC(=O)N3CCOCC3)cc2Cl)c(Cl)c1 | - | Reverse transcriptase | - | PicoGreen / fluorescence | WT | IC50 | HIV-1 | <1 µM
CC[C@H](C)[C@H](NC(=O)[C@@H]1CCCN1C(=O)[C@@H](O)[C@H](Cc1ccccc1)NC(=O)[C@H](CO)NC(=O)Cc1ccccc1)C(=O)N[C@H](C(N)=O)C(C)C | - | Protease | - | - | - | IC50 | HIV-1 | >5 µM
CC(C)(CCCCNS(C)(=O)=O)CN(C[C@@H](O)[C@H](Cc1ccccc1)NC(=O)O[C@H]1CO[C@H]2OCC[C@H]21)S(=O)(=O)c1ccc(N)cc1 | - | Protease | - | fluorescence | - | Ki | HIV-1 | <0.001 µM
CC(C)C(=O)Nc1ccc(NC(=O)CSc2nnnn2-c2ccc(C(C)(C)C)cc2Cl)c(Cl)c1 | - | Reverse transcriptase | - | PicoGreen / fluorescence | WT | IC50 | HIV-1 | <1 µM
COC(=O)NCCCC(C)(C)CN(C[C@@H](O)[C@H](Cc1ccccc1)NC(=O)O[C@H]1CO[C@H]2OCC[C@H]21)S(=O)(=O)c1ccc(N)cc1 | - | Protease | - | fluorescence | - | Ki | HIV-1 | <0.001 µM
CC(C)(C)NC(=O)[C@H]1N(C(=O)[C@@H](O)[C@H](Cc2ccccc2)NC(=O)[C@H](CC(N)=O)NC(=O)COc2cccc3cnccc23)CSC1(C)C | - | Protease | - | - | - | IC50 | HIV-1 | <0.05 µM
CC(C)(CCCOC(=O)NC1CC1)CN(C[C@@H](O)[C@H](Cc1ccccc1)NC(=O)O[C@H]1CO[C@H]2OCC[C@H]21)S(=O)(=O)c1ccc2c(c1)OCO2 | - | Protease | - | fluorescence | - | Ki | HIV-1 | <0.001 µM
NC(=O)C[C@H](NC(=O)OCc1ccccc1)C(=O)N[C@@H](Cc1ccccc1)[C@H](O)C(=O)N1CCC[C@H]1C(=O)NCC1CCCCC1 | 5 µM | Protease | - | - | - | inhibition | HIV-1 | 48.1%
O=C(c1cn2ccn(Cc3cccc(Cl)c3)c(=O)c2c(O)c1=O)N1CCC(O)C1 | - | Integrase | - | ELISA | - | IC50 | HIV-1 | 0.01–0.1 µM
CCCOC(=O)NCCCCCC(C)(C)CN(C[C@@H](O)[C@H](Cc1ccccc1)NC(=O)O[C@H]1CO[C@H]2OCC[C@H]21)S(=O)(=O)c1ccc2c(c1)OCO2 | - | Protease | - | fluorescence | - | Ki | HIV-1 | <0.001 µM

Conditions beyond the fields shown may differ between rows. An empty or dashed field is not shown. Two numbers with a dash give a range or band. ICn is the concentration giving n% inhibition. Fold resistance: result on the changed form divided by that on wild type.